Source: patent US20110118274A1, “PROTEASOME INHIBITORS AND THEIR USE IN TREATING PATHOGEN INFECTION AND CANCER” (CORNELL RESEARCH FOUNDATION, INC., priority 2007, published 2011)

Tested on: Mtb PrcAB-OG
Details: ratio of kinact/K (Mtb-20S OG) versus kobs/[I] (H20S β5)

SMILES | Selectivity
O=c1oc(-c2cc3ccccc3s2)ns1 | 6.4
O=c1oc(-c2cc3c(s2)CCCC3)ns1 | 22.6
